# Laboratory results taken from patent US20240189343A1, “TREATMENT OF VIRUS INFECTIONS” (priority 2021, published 2024).
# Test system: YF17D
substance,measurement,value
dextran sulfate,SI (=TC50/EC50),>250
